Anti-infective test results gathered from many reports (values: NIAID ChemDB through PubChem).

Shared fields: growth or infection tests; organism: HIV-1; endpoint: EC50

ECn is the concentration giving n% inhibition of infection, replication or growth. Rows are shuffled and stem from different studies. Blank or dashed fields: not listed here.

compound,method,mutations,conditions,strain or isolate,cells,result
CC(C)C1=C2[C@H]3CC[C@@H]4[C@@]5(C)CC[C@H](OC(=O)[C@H]6C[C@@H](C(=O)O)C6(C)C)C(C)(C)[C@@H]5CC[C@@]4(C)[C@]3(C)CC[C@@]2(CCN[C@@H](C)c2ccccc2)CC1=O,p24 / ELISA,,,92HT599,MT-2,<1 µM
Fc1ccccc1-c1nc(-c2nnc(C34CCC5CC(CC3C5)C4)o2)cs1,MTT,,,IIIB,MT-4,>97.6 µM
COc1ccccc1N1CCN(c2c(F)cc3c(=O)c(C(=O)O)cn(-c4ccc(Cn5cncn5)cc4)c3c2OC(F)F)CC1,syncytia,,,,PBL,0.004 µM
CN(C[C@@H](CCN1CCC2(CC1)CC(=O)c1ccccc12)c1cccc(Cl)c1)S(=O)(=O)c1ccccc1,RT activity,,,YU2,PBMC,<1.5 µM
COCCOc1cc(Cl)ccc1C(=O)NC(C)(C)C(=O)NC[C@H](O)[C@@]12CC[C@]3(C)[C@H](CC[C@@H]4[C@@]5(C)CC[C@H](OC(=O)[C@H]6C[C@@H](C(=O)O)C6(C)C)C(C)(C)[C@@H]5CC[C@]43C)C1=C(C(C)C)C(=O)C2,p24 / ELISA,,,92HT599,MT-2,<1 µM
CN(C)CCCNC(=O)CCNC(=O)c1cc(NC(=O)c2nc(NC(=O)CCNC(=O)c3cc(NC(=O)c4nc(NC(=O)CCCNC(=O)c5cc(NC(=O)c6nc(NC(=O)CCNC(=O)c7cc(NC(=O)c8nccn8C)cn7C)cn6C)cn5C)cn4C)cn3C)cn2C)cn1C,p24,,,WEAU 1.6,PBMC,<1 µM
CCCCOCCOc1ccc(-c2ccc3c(c2)/C=C(/C(=O)Nc2ccc([S@@](=O)Cc4nncn4CCC)cc2)CCCN3CC(C)C)cc1,p24,,,BAL R5,MOLT-4(CCR5) + PBMC,<0.0016 µM
C[C@@H]1CN(C(=O)c2ccccc2)CCN1C(=O)C(=O)c1c[nH]c2c(NC(=O)NCCCC(=O)O)cccc12,luciferase / reporter gene,,,,HeLa,<1 µM
[2H]C(CCCCN)(NC(=O)c1ccc(Cl)cc1)C(=O)NC[C@H](O)[C@@]12CC[C@]3(C)[C@H](CC[C@@H]4[C@@]5(C)CC[C@H](OC(=O)[C@H]6C[C@@H](C(=O)O)C6(C)C)C(C)(C)[C@@H]5CC[C@]43C)C1=C(C(C)C)C(=O)C2,p24 / ELISA,,,92HT599,MT-2,<1 µM
Cc1cc(=O)oc2c3c(ccc12)S(=O)(=O)[C@H](C)[C@H](OC(=O)[C@@]12CC[C@@](C)(C(=O)O1)C2(C)C)[C@@H]3OC(=O)[C@@]12CC[C@@](C)(C(=O)O1)C2(C)C,p24 / antigen,,,IIIB,H9,>100 µg/mL
CNC(=O)C(O)C(O)C(=O)Nc1cccc2c(C(=O)C(=O)N3CCN(C(=O)c4ccccc4)C[C@H]3C)c[nH]c12,luciferase / reporter gene,,,,HeLa,<1 µM
Clc1cccc(-c2nc(-c3nnc(C45CCC6CC(CC4C6)C5)o3)cs2)c1,MTT,,,IIIB,MT-4,>125 µM
CC(C)C1=C2[C@H]3CC[C@@H]4[C@@]5(C)CC[C@H](OC(=O)[C@H]6C[C@@H](C(=O)O)C6(C)C)C(C)(C)[C@@H]5CC[C@@]4(C)[C@]3(C)CC[C@@]2([C@@H](O)CNC(=O)c2ccc(Cl)cc2O[C@H]2CCOC2)CC1=O,p24 / ELISA,,,92HT599,MT-2,<1 µM
Cc1cccc(C)c1CNC(=O)[C@@H]1CCCN1C(=O)[C@@H](O)C[C@@H](Cc1ccccc1)C(=O)N[C@H]1c2ccccc2OC[C@H]1O,p24,,,NL4-3,MT-4,<1 µM
CC(=O)OCC(=O)Nc1cccc2c(C(=O)C(=O)N3CCN(C(=O)c4ccccc4)C[C@H]3C)c[nH]c12,luciferase / reporter gene,,,,HeLa,<1 µM
Clc1ccccc1-c1nc(-c2nnc(C34CCC5CC(CC3C5)C4)o2)cs1,MTT,,,IIIB,MT-4,>125 µM
Cc1nc(C)c(C(=O)NC[C@H](O)[C@@]23CC[C@]4(C)[C@H](CC[C@@H]5[C@@]6(C)CC[C@H](OC(=O)[C@H]7C[C@@H](C(=O)O)C7(C)C)C(C)(C)[C@@H]6CC[C@]54C)C2=C(C(C)C)C(=O)C3)s1,p24 / ELISA,,,92HT599,MT-2,<1 µM
C[C@@H]1CN(C(=O)c2ccccc2)CCN1C(=O)C(=O)c1c[nH]c2c(NC(=O)Nc3cccc(B(O)O)c3)cccc12,luciferase / reporter gene,,,,HeLa,<1 µM
Cc1cccc(C)c1CNC(=O)[C@H]1N(C(=O)[C@@H](O)C[C@@H](Cc2ccccc2)C(=O)N[C@H]2c3ccccc3OC[C@H]2O)COC1(C)C,p24,,,NL4-3,MT-4,<0.5 µM
O=C(NC(=S)NCCc1ccccc1Cl)c1csc(-c2ccccc2)n1,MTT,,,IIIB,MT-4,>32.22 µM
CC(C)C1=C2[C@H]3CC[C@@H]4[C@@]5(C)CC[C@H](OC(=O)[C@H]6C[C@@H](C(=O)O)C6(C)C)C(C)(C)[C@@H]5CC[C@@]4(C)[C@]3(C)CC[C@@]2(CC(=O)NCCN2CCS(=O)(=O)CC2)CC1=O,p24 / ELISA,,,92HT599,MT-2,<1 µM
COC(=O)c1cccc(Cn2ccc3ccc(-c4ccc5ccn(Cc6cccc(C(=O)O)c6)c5c4)cc32)c1,luciferase,,pseudotyped,HXB2,TZM-bl,2 µM
Oc1ccc([C@H]2c3c(O)cc(O)c(O)c3-c3c(-c4ccc(O)c(O)c4)oc4cc(O)cc(c34)[C@H]2O)cc1,cytopathic effect / XTT,,,RF,CEM + CEM-SS,>21 µg/mL
Cc1cccc(C)c1CNC(=O)[C@H]1N(C(=O)[C@@H](O)C[C@@H](Cc2ccccc2)C(=O)N[C@H]2c3ccccc3OC[C@H]2O)CCC1(C)C,p24,,,NL4-3,MT-4,<0.5 µM
S=C(NCCN1CCCCC1)Nc1ccc(Br)cn1,p24,RT-M41L L74V V106A T215Y,,MDR (RT 74V 41L 106A 215Y),PBMC,>1 µM

The first 3 rows once more:

compound	method	mutations	conditions	strain or isolate	cells	result
CC(C)C1=C2[C@H]3CC[C@@H]4[C@@]5(C)CC[C@H](OC(=O)[C@H]6C[C@@H](C(=O)O)C6(C)C)C(C)(C)[C@@H]5CC[C@@]4(C)[C@]3(C)CC[C@@]2(CCN[C@@H](C)c2ccccc2)CC1=O	p24 / ELISA			92HT599	MT-2	<1 µM
Fc1ccccc1-c1nc(-c2nnc(C34CCC5CC(CC3C5)C4)o2)cs1	MTT			IIIB	MT-4	>97.6 µM
COc1ccccc1N1CCN(c2c(F)cc3c(=O)c(C(=O)O)cn(-c4ccc(Cn5cncn5)cc4)c3c2OC(F)F)CC1	syncytia				PBL	0.004 µM